Pooled drug test results. Numbers come from NIAID ChemDB, via PubChem.

Shared fields: whole-cell or culture tests; organism: Mycobacterium tuberculosis

Neighbouring rows are from separate reports.

compound	read by	strain	dose	read-out	cells	changes	value
Cc1ccc(OC(=O)c2ccc(NC(=O)c3ccccc3C(=O)O)cc2O)cc1		H37Rv		MIC			0.0313 µg/mL
O=C(NNC(=S)Nc1ccccc1Cl)c1ccncc1	resazurin	H37Rv		MIC bound			>6.25 µg/mL
NC1CCN(c2c(F)cc3c(=O)c(C(=O)O)cn(C4CC4)c3c2Cl)C1		60 strains		MIC90			0.5 µg/mL
C[C@H](c1ccccc1)N1C/C(=C/c2ccccc2Br)[C@]2(ON=C(c3ccc(Cl)cc3)O2)C2(C1)ON=C(c1ccc(Cl)cc1)[C@H]2c1ccccc1Br		H37Rv		MIC			3.71 µM
CCOC(=O)c1c(-c2ccccc2)oc2ccc(O)c(CCCCN3CCC3)c12	resazurin / fluorescence	mc(^2)7000		MIC			<0.08 µM
CCCOC(=O)c1ccc(NC(=O)CCC(=O)O)cc1O		H37Rv		MIC			>20 µg/mL
C[C@H](c1ccccc1)N1C[C@@]2(ON=C(c3ccccc3)[C@H]2c2ccccc2Cl)C2(ON=C(c3ccccc3)O2)[C@]2(C1)ON=C(c1ccccc1)[C@H]2c1ccccc1Cl		H37Rv		MIC			3.44 µM
CCN(CC)CCNc1ccc(C)c2sc3ccc(O)cc3c(=O)c12.I	BACTEC	H37Rv		MIC	VERO		6.25 µg/mL
O=C(COc1cnccn1)N/N=C1\SCC(=O)N1c1ccc(Cl)cc1[N+](=O)[O-]		H37Rv		MIC			89 µg/mL
CCN(CC)CCNc1ccc([N+](=O)[O-])c2sc3ccccc3c(=O)c12	BACTEC	H37Rv	12.5 µg/mL	inhibition			100%
CC(=O)CN[C@@H]1[C@H](O[C@H]2[C@H](O[C@H]3[C@H](O)[C@@H](O)[C@H](N=C(N)N)[C@@H](O)[C@@H]3N=C(N)N)O[C@@H](C)[C@]2(O)COC(c2ccccc2)(c2ccccc2)c2ccccc2)O[C@@H](CO)[C@H](O)[C@H]1O		666		MIC			50 µg/mL
Nc1ccc(C(=O)Oc2ccccc2)c(O)c1		H37Rv		MIC			0.0156 µg/mL
CNn1cc(C(=O)O)c(=O)c2cc(F)c(N3CCN(C)CC3)cc21		64 strains		MIC90			4 µg/mL
CC(=O)ONC(=O)CSc1nn2cc(-c3ccccc3)nc2s1	BACTEC	H37Rv	12.5 µg/mL	inhibition			0%
CO[C@H]1/C=C/O[C@@]2(C)Oc3c(C)c(O)c4c(O)c(c(/C=N/N5CCN(C)CC5)c(O)c4c3C2=O)NC(=O)/C(C)=C\C=C\[C@H](C)[C@H](O)[C@@H](C)[C@@H](O)[C@@H](C)[C@H](OC(C)=O)[C@@H]1C		H37Rv		MIC			0.06 µg/mL
CCS(=O)(=O)O.Cc1ccc(S(=O)(=O)F)cc1NC(=O)CCc1ccc(N2C(N)=NC(N)=NC2(C)C)cc1Cl	BACTEC	H37Rv		MIC bound			>12.5 µg/mL
N/C(=N\N=C\c1ccncc1)c1ccccn1				MIC			>16 µg/mL
C[C@H](c1ccccc1)N1C/C(=C\c2cccc3ccccc23)[C@@]2(ON=C(c3ccccc3)O2)[C@@]2(C1)ON=C(c1ccccc1)[C@@H]2c1cccc2ccccc12		H37Rv		MIC			8.7 µM
CCOC(=O)c1ccc(NC(=O)/C=C\C(=O)O)cc1O		H37Rv		MIC			>20 µg/mL
CC(C)(C)Cc1nc(N)c2ncn([C@@H]3OC(COS(=O)(=O)NC(=O)CCCCC4SCC5NC(=O)NC54)[C@@H](O)[C@H]3O)c2n1.CCN(CC)CC	broth dilution	H37Rv		MIC			>100 µM
COC(=O)/C(=C\c1ccccc1Cl)Oc1cccc(C(=O)OC)c1O	resazurin			EC50			118 µM
N#Cc1ccc2nc(NC(=O)CSc3nnc(-c4ccc5ncccc5c4)o3)sc2c1	agar	H37Rv		MIC			200 µg/mL
CCNCC1CCN(c2c(F)cc3c(=O)c(C(=O)O)cn(CC)c3c2F)C1		64 strains		MIC50			2 µg/mL
C[C@H](c1ccccc1)N1C/C(=C\c2ccc(Cl)cc2Cl)C(=O)/C(=C/c2ccc(Cl)cc2Cl)C1		H37Rv		MIC			6.05 µM
N/C(=N\N=C\c1nc2cc(Cl)ccc2o1)c1cnccn1				MIC			>16 µg/mL
COc1ccc(C=CC(=O)c2sc(Nc3ccc([N+](=O)[O-])cc3)nc2C)cc1	resazurin	H37Rv	6.25 µg/mL	inhibition			45%
Cc1ccc2nc(NC(=O)CSc3nnc(-c4ccc5ncccc5c4)o3)sc2c1	agar	H37Rv		MIC			200 µg/mL
C[C@H]1[C@H](C)CC[C@]2(C(=O)O)CC[C@]3(C)C(CC[C@@H]4[C@@]5(C)C[C@H](O)CC(C)(C)[C@@H]5CC[C@]43C)[C@H]12	resazurin	INH-R (ATCC 35822)		MIC			25 µg/mL
C[C@H](c1ccccc1)N1C/C(=C\c2ccc(Cl)cc2)C(=O)/C(=C/c2ccc(Cl)cc2)C1		H37Rv		MIC			27.88 µM
CN(C)C(=S)SC1(CN2CCOCC2)COc2c(Cl)cc(Cl)cc2C1=O	BACTEC	H37Rv		MIC			16 µg/mL
COc1ccn2nc(C)c(C(=O)NCc3ccc(-c4ccc(OC(F)(F)F)cc4)nc3)c2c1	fluorescence	H37Rv		MIC			0.053 µg/mL
CC[C@@H](CO)NCCN[C@@H](CC)CO	broth dilution / resazurin	MDR3		MIC			128 µg/mL
O=C(Nc1cccc([N+](=O)[O-])c1)Nc1ccc(Cl)c(C(F)(F)F)c1	broth dilution / turbidity			MIC90			0.3 µg/mL
C=CCNC(=S)NNC(=O)Cc1csc2nc(-c3ccc(Br)cc3)cn12		H37Rv		MIC			>6.25 µg/mL
CN1CCN(c2cc3c(cc2F)c(=O)c(C(=O)O)cn3-c2ccc(F)cc2)CC1		64 strains		MIC90			4 µg/mL
CC[C@@H]1CN2CCc3c([nH]c4ccccc34)C2C[C@H]1/C(=C/OC)C(=O)OC.Cl	BACTEC	H37Rv		MIC bound			>12.5 µg/mL
O=C(Cc1csc2nc(-c3ccc(Br)cc3)cn12)N/N=C1\SCC(=O)N1c1ccccc1		H37Rv	6.25 µg/mL	inhibition			2%
CN1C(=O)C=C2c3ccccc3C(=O)C3C(NC(=O)c4ccc5[nH]c6c7c(ccc6c(=O)c5c4)C(=O)c4ccccc4C7=O)=CC=C1C23	BACTEC	H37Rv	12.5 µg/mL	inhibition			0%
CC(=O)N[C@@H]1[C@H](O[C@H]2[C@H](O[C@H]3[C@H](O)[C@@H](O)[C@H](N=C(N)N)[C@@H](O)[C@@H]3N=C(N)N)O[C@@H](C)[C@]2(O)CO)O[C@@H](CO)[C@H](O)[C@H]1O		666		MIC			1.56 µg/mL
CC(=O)Nc1ccc(NC(=O)CSc2nnc(-c3ccc4ncccc4c3)o2)cc1	agar	H37Rv		MIC			100 µg/mL
N/C(=N\N=C\c1cc2ccccc2s1)c1cnccn1				MIC			>16 µg/mL
CCN(CC)CCNC(=O)c1c2nc3c(C(=O)NCCN(CC)CC)ccc(C)c3oc-2c(C)c(=O)c1N	BACTEC	H37Rv	12.8 µg/mL	inhibition			2%
Cc1ccc(/C=C2\CN([C@H](C)c3ccccc3)C/C(=C\c3ccc(C)cc3)C2=O)cc1		H37Rv		MIC			30.67 µM
CCOC1CC2CC3C4CCC5=CC(=O)CCC5(C)C4CCC3(C)C2=C(C)O1	BACTEC	H37Rv	12.5 µg/mL	inhibition			1%
O=C(COc1cnccn1)NNC(=S)Nc1ccc(Cl)cc1		H37Rv		MIC			62 µg/mL
N/C(=N\N=C\c1cc2ccccc2s1)c1ccccn1				MIC			>16 µg/mL
O=C(Nc1ccc2c(c1)OCCO2)N1CCC2(CC1)OCCc1sccc12	resazurin	H37Rv		MIC90			0.3 µM
Cc1cccc(OC(=O)c2ccc(NC(=O)c3ccccc3C(=O)O)cc2O)c1		H37Rv		MIC			0.25 µg/mL
COC(=O)/C(=C\c1ccccc1Br)Oc1cccc(C(=O)OC)c1O	resazurin			EC50			95 µM
C[C@H](c1ccccc1)N1C/C(=C/c2ccc(Cl)cc2)[C@]2(ON=C(c3ccccc3)O2)C2(C1)ON=C(c1ccccc1)[C@H]2c1ccc(Cl)cc1		H37Rv		MIC			4.56 µM
Cc1c(F)c(N2CCNC(C)C2)cc2c1c(=O)c(C(=O)O)cn2C1CC1		22 strains		MIC90			3.13 µg/mL
COc1cc(O)c(C(C)=O)c2c1C=CC(C)(C)O2	BACTEC	H37Rv	12.5 µg/mL	inhibition			25%
O=C1Nc2ccccc2C12C=C(c1ccccc1)Nc1ccc(F)cc1S2				MIC			<12.5 µg/mL
COC(=O)/C(=C\c1cccc(C)c1)Oc1cccc(C(=O)OC)c1O	resazurin			EC50			263 µM
CCCNC(=O)c1c(-c2ccc(O)cc2)oc2ccc(O)c(CCCN3CCC3)c12	resazurin / fluorescence	mc(^2)7000		MIC			<0.08 µM
COc1ccn2nc(C)c(C(=O)NCc3ccc(-c4ccc(OC(F)(F)F)cc4)c(F)c3)c2c1	fluorescence	H37Rv		MIC		Rifampicin-resistant	<0.002 µg/mL
O=C(Cc1csc2nc(-c3ccc(Br)cc3)cn12)NNC(=S)Nc1ccccc1		H37Rv	6.25 µg/mL	inhibition			0%
C[CH2][Sn]([Cl])([Cl])[CH2]C.c1ccc(-c2ccnc3c2ccc2c(-c4ccccc4)ccnc23)cc1	BACTEC	H37Rv		MIC			3.13 µg/mL
COc1ncc(F)c2nc(S(=O)(=O)Nc3c(O)cccc3C(C)O)nn12	visual reading	X59		MIC50		INH RIF resistant	0.5 µM
C[C@H](c1ccccc1)N1C[C@@]2(ON=C(c3ccccc3)[C@H]2c2ccccc2Br)C2(ON=C(c3ccccc3)O2)[C@]2(C1)ON=C(c1ccccc1)[C@H]2c1ccccc1Br		H37Rv		MIC			3.5 µM
CCNC(=S)NNC(=O)Cc1csc2nc(-c3ccc(Br)cc3)cn12		H37Rv		MIC			>6.25 µg/mL
COC(=O)/C(=C\c1ccccc1C(F)(F)F)Oc1cccc(C(=O)OC)c1O	resazurin			EC50			25 µM
CNC(=O)c1c(-c2ccccc2)oc2cc(OCC(=O)OC)cc(CN3CCCCC3)c12	resazurin / fluorescence	mc(^2)7000		MIC16			40 µM
CC(C)(C)CC(C)(O)CN(CC(C)(O)CC(C)(C)C)C(=S)S	BACTEC	H37Rv	12.5 µg/mL	inhibition			100%
Cc1nc2ccccc2nc1C(=O)/C=C/c1ccc([N+](=O)[O-])cc1	resazurin	H37Rv		EC50			>250 µM
CC(C)OC(=O)c1ccc(NC(=O)CCC(=O)O)cc1O		H37Rv		MIC			>20 µg/mL
COC(=O)c1cc(-c2ccc(OC)c(OC)c2)oc1-c1ccc(OC)c(OC)c1	BACTEC	H37Rv		MIC bound			>12.5 µg/mL
O=C(COc1cnccn1)N/N=c1\scc(-c2ccc(O)cc2)n1-c1ccc(Cl)cc1Cl		H37Rv		MIC			10.8 µg/mL
COc1cc2cc3c4cc(OC)c(OC)cc4cc[n+]3c(CCC(=O)O)c2cc1OC.O=C(O)CC(C(=O)O)S(=O)(=O)O	BACTEC	H37Rv		MIC			12.5 µg/mL
Cc1nc2nc(S(=O)(=O)Nc3c(Br)ccc4cccnc34)nn2c2c1CCC2	visual reading	X24		MIC50		INH RIF resistant	2 µM
CC1(C)SC(C)(C)N2C(=O)[C@@H]3N(C(=O)[C@H]21)C(C)(C)SC3(C)C	resazurin	H37Rv		MIC bound			>6.25 µg/mL
COC(=O)/C(=C\c1ccccc1C)Oc1cccc(C(=O)OC)c1O	resazurin			EC50			140 µM
Oc1cc(O)c2c(c1)O[C@@H](c1ccc(O)c(O)c1)[C@H](O)C2	BACTEC	H37Rv		MIC			≥12.8 µg/mL
Cc1ccc(OC(=O)c2ccc(N)cc2O)cc1		H37Rv		MIC			0.0078 µg/mL
C=C1c2[nH]c3ccccc3c2C2C(CC)C1CCN2C	BACTEC	H37Rv		MIC bound			>12.8 µg/mL
CCOC(=O)c1ccc(NC(=O)c2ccccc2C(=O)O)cc1O		H37Rv		MIC			>2 µg/mL
COC1CC2CCC(C)C(O)(O2)C(=O)C(=O)N2CCCCC2C(=O)OC(C(C)CC2CCC(O)C(OC)C2)CC(=O)C(C)C=C(C)C(OC(=O)CCCN2CCCC2)C(OC)C(=O)C(C)CC(C)/C=C\C=C/C=C1C	BACTEC	H37Rv		MIC bound			>12.5 µg/mL
CCn1cc(C(=O)O)c(=O)c2cc(F)c(N3CCNCC3)nc21		64 strains		MIC50			4 µg/mL

For reference, 11 entries again:

compound | read by | strain | dose | read-out | cells | changes | value
C=C1c2[nH]c3ccccc3c2C2C(CC)C1CCN2C | BACTEC | H37Rv |  | MIC bound |  |  | >12.8 µg/mL
NC1CCN(c2c(F)cc3c(=O)c(C(=O)O)cn(C4CC4)c3c2Cl)C1 |  | 60 strains |  | MIC90 |  |  | 0.5 µg/mL
Oc1cc(O)c2c(c1)O[C@@H](c1ccc(O)c(O)c1)[C@H](O)C2 | BACTEC | H37Rv |  | MIC |  |  | ≥12.8 µg/mL
O=C(Cc1csc2nc(-c3ccc(Br)cc3)cn12)N/N=C1\SCC(=O)N1c1ccccc1 |  | H37Rv | 6.25 µg/mL | inhibition |  |  | 2%
CO[C@H]1/C=C/O[C@@]2(C)Oc3c(C)c(O)c4c(O)c(c(/C=N/N5CCN(C)CC5)c(O)c4c3C2=O)NC(=O)/C(C)=C\C=C\[C@H](C)[C@H](O)[C@@H](C)[C@@H](O)[C@@H](C)[C@H](OC(C)=O)[C@@H]1C |  | H37Rv |  | MIC |  |  | 0.06 µg/mL
C[C@H](c1ccccc1)N1C/C(=C/c2ccccc2Br)[C@]2(ON=C(c3ccc(Cl)cc3)O2)C2(C1)ON=C(c1ccc(Cl)cc1)[C@H]2c1ccccc1Br |  | H37Rv |  | MIC |  |  | 3.71 µM
C[C@H](c1ccccc1)N1C[C@@]2(ON=C(c3ccccc3)[C@H]2c2ccccc2Br)C2(ON=C(c3ccccc3)O2)[C@]2(C1)ON=C(c1ccccc1)[C@H]2c1ccccc1Br |  | H37Rv |  | MIC |  |  | 3.5 µM
C[C@H](c1ccccc1)N1C/C(=C\c2ccc(Cl)cc2Cl)C(=O)/C(=C/c2ccc(Cl)cc2Cl)C1 |  | H37Rv |  | MIC |  |  | 6.05 µM
COC(=O)/C(=C\c1ccccc1Cl)Oc1cccc(C(=O)OC)c1O | resazurin |  |  | EC50 |  |  | 118 µM
O=C(Cc1csc2nc(-c3ccc(Br)cc3)cn12)NNC(=S)Nc1ccccc1 |  | H37Rv | 6.25 µg/mL | inhibition |  |  | 0%
CCCOC(=O)c1ccc(NC(=O)CCC(=O)O)cc1O |  | H37Rv |  | MIC |  |  | >20 µg/mL

Blank or dashed fields: not listed here. MIC bound: limit read from a one-dose screen. MIC50, MIC90 and the like: level of inhibition, or share of isolates inhibited. ECn: concentration that inhibits the pathogen or its effect by n%. Inhibition is in % at the dose shown (toxicity tests: loss of growth or viability).